Data published in patent US20150376238A1, “Polypeptides for treating and/or limiting influenza infection” (University of Washington, published 2015).

Molecular target: H2 hemagglutinin (A/Adachi/2/1957) (Influenza A virus A/Adachi/2/1957 (H2N2))
Experiment: yeast surface display titration

B1: 52alt1-3 (designed binder)
chain: GIVNVPNPNTTKYQQLARSAIAIYNNHQNAHLEFVENLNVKEQVSYGAMYYITLAATDDAGKKKIYKAKVGVVESAGWVGVEEFKLV
Kd: 8.5 nM
